Measurements: PMC5028891, “Structural basis for disruption of claudin assembly in tight junctions by an enterotoxin” (2016)

Assays:
Assay in all cases: pull-down
[1] = biological target: human claudin-4 (full-length) F35A, human, O14493 1-209
[2] = biological target: human claudin-4 (full-length) N53A, human, O14493 1-209
[3] = biological target: human claudin-4 (full-length) N53D, human, O14493 1-209

For “glutathione-S-transferase-tagged C-CPE (residues 185′–319′), wild type F35A”, the result [1] was “binds”.
In the case of “glutathione-S-transferase-tagged C-CPE (residues 185′–319′), wild type N53A”, the result [2] is reported as “binds”.
For “glutathione-S-transferase-tagged C-CPE (residues 185′–319′), wild type N53D”, the result [3] was “binds”.
